Anti-infective test results gathered from many reports (values: NIAID ChemDB through PubChem).

Shared fields: host cell toxicity; cell line: MT-4; read-out: CC50

a–b is a range or a potency band. An empty or dashed field is not shown. Lines come from different laboratories, so protocols vary. CCn is the concentration with n% toxicity to the cells.

SMILES,read by,result
CC(=O)c1cn(COCCO)c2ccccc12,,>200 µM
CCC(C)Oc1nc(N)cc(S(=O)(=O)c2cccc(C)c2)n1,,>200 µM
CC(C)C(NC(=O)OC(C)(C)C)C(=O)O[C@@H](C[C@@H](Cc1ccccc1)C(=O)N1[C@H]2c3ccccc3C[C@H]2OC1(C)C)CN1CCN(Cc2cccnc2)C[C@H]1C(=O)NC(C)(C)C,,0.07 µM
COc1cc(CSc2nc(Cc3c(Cl)cccc3Cl)c(C)c(=O)[nH]2)cc(OC)c1,MTT,>55 µM
NC(=O)c1ccc(Cn2cc(CSc3nc(Cc4cccc5ccccc45)c(I)c(=O)[nH]3)nn2)cc1,MTT,88.01 µM
CCc1c(Cc2cccc3ccccc23)nc(SCc2ccc(OC)cc2)[nH]c1=O,,>227 µM
Cc1c(Cc2c(Cl)cccc2Cl)nc(SCc2cccc(F)c2)[nH]c1=O,MTT,>61 µM
Cc1cn([C@H]2C[C@H](N=[N+]=[N-])[C@@H](CO)O2)c(=O)[nH]c1=O,MTT,7.485 µM
C=C(C)[C@]12C[C@@H](C)[C@@]34OC5(CCCCCCC[C@H](C)[C@H]6[C@H](C)[C@H](OC(=O)c7ccccc7)[C@@](O)([C@H](O)[C@@]7(CO)O[C@H]7[C@H]3[C@H]1O5)[C@@H]64)O2,luminescence,>0.03 µM
N#Cc1cn(COCCO)c2ccccc12,,>200 µM
O=c1[nH]c(SCc2cn(Cc3ccc(F)cc3)nn2)nc(Cc2c(Cl)cccc2Cl)c1I,MTT,92.05 µM
Cc1cn([C@@H]2O[C@H](CO[Si](C)(C)C(C)(C)C)C3(OS(=O)(=O)C=C3N)[C@H]2O[Si](C)(C)C(C)(C)C)c(=O)n(CC(=O)N[C@@H](CC(=O)O)C(=O)O)c1=O,,>250 µM
CC(C)[C@H](NC(=O)OCc1ccccc1)C(=O)N[C@@H](Cc1ccccc1)C(=O)C(F)(F)CCc1ccccn1,,>100 µM
CC(=O)OCCOCn1cc(C(C)=O)c2ccccc21,,>200 µM
Cc1cn([C@@H]2O[C@H](CO[Si](C)(C)C(C)(C)C)C3(OS(=O)(=O)C=C3N)[C@H]2O[Si](C)(C)C(C)(C)C)c(=O)n(CC(=O)N[C@H](C(=O)OCc2ccccc2)C(C)C)c1=O,,105 µM
CC1CNC(=O)c2ccccc2SSc2ccccc2C(=O)N1,,15.9 µg/mL
Cc1ncc([N+](=O)[O-])n1CCOC(c1ccccc1)c1ccco1,MTT,84 µM
O=c1[nH]cnc2c1ncn2[C@H]1CC[C@@H](CO)O1,,1114 µM
COc1ccc(CSc2nc(Cc3cccc4ccccc34)c(C(C)C)c(=O)[nH]2)cc1,,>37.39 µM
O=C1O[C@H]2[C@@H]3OC(=O)c4cc(O)c(O)c(O)c4-c4c(cc(O)c(O)c4O)C(=O)OC[C@H]2O[C@@H](OC(=O)c2cc(O)c(O)c(O)c2)[C@@H]3OC(=O)c2cc(O)c(O)c3c2[C@@H]2C1=CC(=O)[C@](O)(O3)C2(O)O,XTT,14.2 µM
CCC(C)Oc1cc(=O)n(C)c(Sc2ccccc2)n1,,>200 µM
CCC[C@@]1(CCc2ccccc2)CC(O)=C([C@H](CC)c2cccc(NS(=O)(=O)c3ccc(C(F)(F)F)cn3)c2)C(=O)O1,,18.6 µM
CC(C)Nc1cccnc1N1CCN(C(=O)c2cc3cc(NS(C)(=O)=O)ccc3[nH]2)CC1,MTT,>43.86 µM
CC(C)(C)NC(=O)[C@@H]1C[C@@H]2CCCC[C@@H]2CN1C[C@@H](OC(=O)COc1ccc(C[C@H](N)C(=O)O)cc1)[C@H](Cc1ccccc1)NC(=O)[C@H](CC(N)=O)NC(=O)c1ccc2ccccc2n1,MTT,>100 µM
CC(=O)OCCOCn1c(-c2ccccc2)c(Br)c2ccccc21,,120 µM
CCC(C)Oc1nc(N)cc(Sc2cccc(C)c2)n1,,115 µM
O=S(=O)(O)c1cc(NS(=O)(=O)c2ccc(-c3ccc(S(=O)(=O)Nc4cc(S(=O)(=O)O)c5cccc(S(=O)(=O)O)c5c4)cc3)cc2)cc2c(S(=O)(=O)O)cccc12,,>500 µM
CC(C)(C)NC(=O)[C@@H]1C[C@@H]2CCCC[C@@H]2CN1C[C@@H](OC(=O)COc1ccc(C[C@H](N)C(=O)O)cc1)[C@H](Cc1ccccc1)NC(=O)[C@H](CC(N)=O)NC(=O)c1ccc2ccccc2n1,,>0.01 µM
Nc1ncnc2c1ncn2[C@]1(c2ccccc2)C[C@@H]1CO,,>100 µM
COc1ccc(Cn2cc(CSc3nc(Cc4cccc5ccccc45)c(C)c(=O)[nH]3)nn2)cc1,MTT,26.53 µM
CCc1c(Cc2ccc(-c3ccccc3)cc2)nc(SCc2ccc(OC)cc2)[nH]c1=O,,>194 µM
COC(=O)[C@H](CCSC)NC(=O)[C@H](CCSC)NC(=O)COc1ccc2ccccc2c1,MTT,>100 µg/mL
CCCCCCCCCCCCCC(=O)O[C@@H](C[C@@H](Cc1ccccc1)C(=O)N[C@H]1c2ccccc2C[C@H]1OC(=O)CCCCCCCCCCCCC)CN1CCN(Cc2cccnc2)C[C@H]1C(=O)NC(C)(C)C,,>0.01 µM
CC(=O)c1ccc(C)cc1NC(C(N)=O)c1c(Cl)cccc1Cl,MTT,712 µM
CC(C)[C@H](NC(=O)OCc1ccccc1)C(=O)N[C@@H](Cc1ccccc1)C(=O)C(F)(F)CCc1ccccc1,,>100 µM
COc1nc(=O)[nH]c2c1C(c1ccc(Cl)cc1)c1c(OC)nc(=O)[nH]c1O2,,>347 µM
Nc1ccn([C@]2(c3ccccc3)C[C@@H]2COCP(=O)(O)O)c(=O)n1,,>100 µM
Cc1cn([C@H]2C[C@H](N=[N+]=[N-])[C@@H](CO)O2)c(=O)[nH]c1=O,MTT,>7 µM
COC(=O)[C@H](CC(C)C)NC(=O)CNC(=O)COc1ccc2ccccc2c1,MTT,16 µg/mL
Clc1nc(Cl)c2c(n1)Oc1nc(Cl)nc(Cl)c1C2c1ccccc1,,17.5 µM
COc1ccc2c(c1)N(C(=O)OC(C)C)[C@@H](CSC)C(=S)N2,MTT,>29.4 µM
Nc1nc2c(ncn2[C@@H]2C[C@H](CO)[C@H]2CO)c(=O)[nH]1,,29 µM
O=Cc1cn(COCCO)c2ccccc12,,≥200 µM
CCC(C)Oc1cc(=O)[nH]c(Sc2cccc(Cl)c2)n1,,≥300 µM
Nc1ncnc2c1ncn2[C@]1(c2ccccc2)C[C@@H]1COCP(=O)(O)O,,>100 µM
O=c1[nH]c(SCc2cn(Cc3ccc(F)cc3)nn2)nc(Cc2cccc3ccccc23)c1I,MTT,81.81 µM
Nc1ncnc2c1ncn2CCOCP(=O)(O)O,,80 µM
COC(=O)CNC(=O)[C@H](CO)NC(=O)COc1ccc2ccccc2c1,MTT,>100 µg/mL
CC1(C)S[C@@H]2[C@H](NC(=O)Cc3ccccc3)C(=O)N2[C@H]1C(=O)NCCNC(=O)[C@@H]1N2C(=O)[C@@H](NC(=O)Cc3ccccc3)[C@H]2SC1(C)C,,>100 µM
Nc1ccn([C@H]2C=C[C@@H](CO)O2)c(=O)n1,,2–10 µg/mL
Cc1ccnc2c1NC(=O)c1cccnc1N2C1CC1,,290 µM
COC(=O)[C@@H](NC(=O)Cc1ccccc1)[C@@H]1N[C@@H](C(=O)NCCNC(=O)[C@@H]2N[C@@H]([C@H](NC(=O)Cc3ccccc3)C(=O)OC)SC2(C)C)C(C)(C)S1,,>100 µM
CCCCCCCSc1nsc(NC(=O)Nc2ccccc2)n1,,120.6 µM
CC(C)[C@H](NC(=O)CNC(=O)OCc1ccccc1)C(=O)N[C@@H](Cc1ccccc1)C(=O)C(F)(F)CCc1ccccc1,,>100 µM
Cc1c(Cc2c(F)cccc2F)nc(SCc2ccc([N+](=O)[O-])cc2)[nH]c1=O,MTT,>62 µM
Cc1c(Cc2cccc3ccccc23)nc(SCc2cn(Cc3ccccc3C#N)nn2)[nH]c1=O,MTT,123 µM
Cc1cn([C@H]2C[C@H](N=[N+]=[N-])[C@@H](CO)O2)c(=O)[nH]c1=O,,4.24 µM
CC(C)(C)NC(=O)[C@@H]1CN(Cc2cccnc2)CCN1C[C@H](C[C@@H](Cc1ccccc1)C(=O)N[C@H]1c2ccccc2C[C@H]1O)OC(=O)COc1ccc(C[C@H](N)C(=O)O)cc1,,>0.1 µM
Cc1c(Cc2c(Cl)cccc2Cl)nc(SCc2ccc(F)cc2)[nH]c1=O,MTT,>61 µM
CCC(C)Oc1cc(N)nc(Sc2ccccc2Cl)n1,,87 µM
COC(=O)[C@H](C)NC(=O)CNC(=O)COc1ccc2ccccc2c1,MTT,59 µg/mL
CCCCCCCC/C=C\CCCCCCCC(=O)O[C@@H]1Cc2ccccc2[C@@H]1NC(=O)[C@H](Cc1ccccc1)C[C@H](O)CN1CCN(Cc2cccnc2)C[C@H]1C(=O)NC(C)(C)C,MTT,>100 µM
Cc1cn([C@H]2C[C@H](N=[N+]=[N-])[C@@H](CO)O2)c(=O)[nH]c1=O,,1.15 µM
C1CNCCNCCCNCCNC1.[Cl-].[O]=[V+2],MTT,>360 µM
CC(C)[C@H](NC(=O)N(C)Cc1ccccn1)C(=O)N[C@@H](Cc1ccccc1)[C@@H](O)[C@H](O)[C@H](Cc1ccccc1)NC(=O)[C@@H](NC(=O)N(C)Cc1ccccn1)C(C)C,,>100 µM
CCn1c(=O)c(C)cn([C@@H]2O[C@H](CO[Si](C)(C)C(C)(C)C)C3(OS(=O)(=O)C=C3N)[C@H]2O[Si](C)(C)C(C)(C)C)c1=O,MTT,>64.7 µM
O=S(=O)(O)c1cc(O)c2c(NS(=O)(=O)c3ccc(-c4ccc(S(=O)(=O)Nc5cc(S(=O)(=O)O)cc6cc(S(=O)(=O)O)cc(O)c56)cc4)cc3)cc(S(=O)(=O)O)cc2c1,,320 µM
Nc1nc2c(ncn2C2CC(CO)(CO)C2)c(=O)[nH]1,,>500 µM
COC(=O)[C@H](CO)NC(=O)[C@H](C)NC(=O)COc1ccc2ccccc2c1,MTT,>100 µg/mL
COCCOCCOCCOCCOCCOCCOCCOC(=O)CCC(=O)O[C@@H]1Cc2ccccc2[C@@H]1NC(=O)[C@H](Cc1ccccc1)C[C@H](O)CN1CCN(Cc2cccnc2)C[C@H]1C(=O)NC(C)(C)C,,>0.1 µM
COc1ccc(Cn2cc(CSc3nc(Cc4cccc5ccccc45)cc(=O)[nH]3)nn2)cc1,MTT,68.53 µM
CC(C)(C)NC(=O)[C@@H]1C[C@@H]2CCCC[C@@H]2CN1C[C@@H](OC(=O)[C@H](Cc1ccccc1)NC(=O)OC(C)(C)C)[C@H](Cc1ccccc1)NC(=O)[C@H](CC(N)=O)NC(=O)c1ccc2ccccc2n1,MTT,>100 µM
Nc1ccn(CC2CN2CP(=O)(O)O)c(=O)n1,MTT,>100 µM
C=C(C)[C@]12C[C@@H](COC(=O)c3ccccc3)[C@@]34OC5(O[C@@H]1[C@@H]3[C@@H]1O[C@]1(COC(=O)c1ccccc1)[C@@H](O)[C@@]1(O)[C@H]4[C@H]([C@H](C)[C@@H]1O)[C@@H](C)CCCCCC[C@H]5O)O2,luminescence,>0.03 µM
CC(C)(C)NC(=O)[C@@H]1C[C@@H]2CCCC[C@@H]2CN1C[C@@H](O)[C@H](Cc1ccccc1)NC(=O)[C@H](CC(N)=O)NC(=O)c1ccc2ccccc2n1,,>0.01 µM
O=c1[nH]c2c(c(=O)[nH]1)C(c1ccccc1)c1c([nH]c(=O)[nH]c1=O)O2,,>383 µM
Nc1nc2c(ncn2CC2CN2CP(=O)(O)O)c(=O)[nH]1,MTT,>100 µM
CC(C)OP(=O)(COC[C@H]1C[C@@]1(c1ccccc1)n1cnc2c(N)ncnc21)OC(C)C,,>100 µM
O=c1[nH]c(=S)[nH]c2c1C(c1ccc(Cl)cc1)c1c([nH]c(=S)[nH]c1=O)O2,,137 µM

6 of the rows above, restated:

{"SMILES": "Cc1c(Cc2cccc3ccccc23)nc(SCc2cn(Cc3ccccc3C#N)nn2)[nH]c1=O", "read by": "MTT", "result": "123 µM"}
{"SMILES": "COC(=O)[C@H](C)NC(=O)CNC(=O)COc1ccc2ccccc2c1", "read by": "MTT", "result": "59 µg/mL"}
{"SMILES": "CC1CNC(=O)c2ccccc2SSc2ccccc2C(=O)N1", "result": "15.9 µg/mL"}
{"SMILES": "CCCCCCCCCCCCCC(=O)O[C@@H](C[C@@H](Cc1ccccc1)C(=O)N[C@H]1c2ccccc2C[C@H]1OC(=O)CCCCCCCCCCCCC)CN1CCN(Cc2cccnc2)C[C@H]1C(=O)NC(C)(C)C", "result": ">0.01 µM"}
{"SMILES": "Cc1cn([C@@H]2O[C@H](CO[Si](C)(C)C(C)(C)C)C3(OS(=O)(=O)C=C3N)[C@H]2O[Si](C)(C)C(C)(C)C)c(=O)n(CC(=O)N[C@@H](CC(=O)O)C(=O)O)c1=O", "result": ">250 µM"}
{"SMILES": "CCn1c(=O)c(C)cn([C@@H]2O[C@H](CO[Si](C)(C)C(C)(C)C)C3(OS(=O)(=O)C=C3N)[C@H]2O[Si](C)(C)C(C)(C)C)c1=O", "read by": "MTT", "result": ">64.7 µM"}